Measured values from patent US20220371986A1, “METHOD TO GENERATE BIOCHEMICALLY REACTIVE AMINO ACIDS” (The Regents of the University of California, priority 2019, published 2022).

Test system: MBP-Z24FSY
Test: In vivo crosslinking of MBP-Z24FSY with Afb-7X co-expressed in E. coli (Western blot, SDS-PAGE, tandem MS)
Format: cell-based
Details: for cross-linking bands with MBP-Z24FSY: co-expressed in E. coli, Western blot and SDS-PAGE; for crosslinked peptides with MBP-Z24FSY detected by tandem MS: purified proteins; for crosslinking efficiency with MBP-Z24FSY: co-expressed in E. coli 37° C. 6 h, purified His-tagged proteins on SDS-PAGE
Description: The inventors then determined whether the incorporated FSY could react with natural amino acid residues via proximity-enabled reactivity directly in E. coli. Afb binds to its substrate Z protein with a moderate affinity, providing a suitable protein framework to study FSY crosslinking in vivo. In light of the crystal structure of Afb-Z complex (Hogbom, et al, P. Proc. Natl. Acad. Sci. USA, 100:3191-3196 (2003)), the inventors introduced FSY at position 24 of Z protein and the target natural residue at position 7 of Afb, placing the two residues in close proximity upon Afb-Z binding (FIG. 3A). As aryl fluorosulfate is a weak electrophile, the inventors decided to test FSY's reactivity toward Lys, His, Tyr, Cys, Ser, and Thr using Ala as a negative control. To better separate the Afb and Z proteins of similar molecular weights, we fused maltose binding protein (MBP) to the N-terminus of Z (MBP-Z). MBP-Z and Afb were both appended with a 6×His-tag at C-terminus. To determine whether chemical crosslinking could occur in living cells, we co-expressed MBP-Z24FSY and Afb-7X (X=target residue) in E. coli. After culturing at 37° C. for 6 h, the same number of cells were analyzed using Western blot under denatured conditions. […] 6×His-tagged proteins were purified from cells and analyzed with SDS-PAGE.
To further validate the in vivo chemical crosslinking ability of FSY, the purified proteins were analyzed using tandem MS.
Afb4A-7X and MBP-Z24FSY: The pEvol-FSYRS and pET-Duet-Afb4A-7X-MBP-Z24TAG were co-transformed into BL21(DE3) E. coli chemical competent cells. The transformants were plated on an LB-Amp100Cm34 agar plate and incubated overnight at 37° C. A single colony was inoculated into 5 mL of 2×YT-Amp100Cm34 and cultured overnight at 37° C. On the following day, 1 mL of overnight cell culture was diluted into 50 mL 2×YT-Amp100Cm34 and agitated vigorously at 37° C. When OD600 reached 0.4˜0.6, the cell culture was induced with 0.5 mM IPTG and 0.2% arabinose, then incubated at 37° C. for 6 h. Cell pellets were collected by centrifugation at 4200 g for 30 min at 4° C. and stored at −80° C.
His-tag protein purification: Above cell pellets were resuspended in 14 mL lysis buffer (50 mM Tris-HCl pH 8.0, 500 mM NaCl, 20 mM imidazole, 1% v/v Tween 20, 10% v/v glycerol, lysozyme 1 mg/mL, DNase 0.1 mg/mL, and protease inhibitors). The cell suspension was lysed at 4° C. for 30 min. Cell lysate was sonicated with Sonic Dismembrator (Fisher Scientific, 30% output, 3 min, 1 sec off, 1 sec on) in an ice-water bath, followed by centrifugation (20,000 g, 30 min, 4° C.). The soluble fractions were collected and incubated with pre-equilibrated Protino®Ni-NTA Agarose resin (400 μL) at 4° C. for 1 h with constant mechanical rotation. The slurry was loaded onto a Poly-Prep® Chromatography Column, washed with 5 mL of wash buffer (50 mM Tris-HCl pH 8.0, 500 mM NaCl, 20 mM imidazole, and 10% v/v glycerol) for 3 times, and eluted with 200 μL of elution buffer (50 mM Tris-HCl, pH 8.0, 500 mM NaCl, 250 mM imidazole, and 10% v/v glycerol) for 5 times. The eluates were concentrated and buffer exchanged into 100 μL of protein storage buffer (50 mM Tris-HCl, pH 7.4 or 8.0, and 150 mM NaCl) using Amicon Ultra columns, and stored at −80° C. for future analysis.
Protein digestion and tandem mass spectrometry measurement were performed as previously described by Yang et al, Nat. Communi., 8:2240 (2017). The Afb/MBP-Z samples were digested with Glu-C. The CaM and Trx1/PAPS reductase samples were digested by trypsin. Digested peptides were analyzed with an in-line EASY-spray source and nano-LC UltiMate 3000 high-performance liquid chromatography system (Thermo Fisher) interfaced with Elite mass spectrometer (Thermo Fisher). Peptides were eluted over gradient of 2%-40% buffer B (80% acetonitrile, 20% H2O, 0.1% formic acid) at flow rate 300 nL/min from EASY-Spray PepMap C18 Columns (50 cm; particle size, 2 μm; pore size, 100 Å; Thermo Fisher). […]

Substance	cross-linking bands with MBP-Z24FSY	crosslinked peptides with MBP-Z24FSY detected by tandem MS	crosslinking efficiency with MBP-Z24FSY [%]
Afb-7Thr: Z-binding affibody (Afb) with Thr at position 7	no cross-linking bands were observed	no crosslinked peptides	
Afb-7His: Zspa affibody (Afb) with His at position 7			53
Afb-7Lys: Zspa affibody (Afb) with Lys at position 7, C-terminal 6×His-tag			59
Afb-7Ser: Z-binding affibody (Afb) with Ser introduced at position K7	no cross-linking bands were observed	no crosslinked peptides	
Afb-7Tyr: Zspa affibody (Afb) with Tyr at position 7			35
